The source of these data is patent publication US20250304927A1, “PRO-PEPTIDE VARIANTS FOR MODULATING ACTIVITY OF TRANSGLUTAMINASES” (CURIE CO. INC., priority 2022, published 2025).

This data set has as its system zymogen transglutaminase. In words: zymogen transglutaminase yield by bicinchoninic acid assay. Further details: species or system Streptomyces mobaraensis; key: The symbol, —, represents not determined, neutral, or reduced performance. As to conditions: zymogen transglutaminase yield relative to wild-type pro-domain.

“D2S, E7S, D21T, D22Q: combination variant of pro-peptide SEQ ID NO: 2, Method B (MSNGAGSETKSYAETYRLTATQVANINALNESAPAASSAGPSFRAP)”: the Yield result was “—”.

On to “D2S, E7S, D22Q: combination variant of pro-peptide SEQ ID NO: 2, Method B (MSNGAGSETKSYAETYRLTADQVANINALNESAPAASSAGPSFRAP)”, for which the Yield was >1.2 fold.

As to “D2S, D22Q: combination variant of pro-peptide SEQ ID NO: 2, Method B (MSNGAGEETKSYAETYRLTADQVANINALNESAPAASSAGPSFRAP)”, the Yield entry was “—”.

As for “E7S, L18V, D21R: combination variant of pro-peptide SEQ ID NO: 2, Method B (MDNGAGSETKSYAETYRVTARDVANINALNESAPAASSAGPSFRAP)”, the Yield entry is “—”.

Turning to “D2S, D21T, D22Q: combination variant of pro-peptide SEQ ID NO: 2, Method B (MSNGAGEETKSYAETYRLTATQVANINALNESAPAASSAGPSFRAP)”, the Yield result is on record as “—”.

As to “D2I, E7S, D22Q: combination variant of pro-peptide SEQ ID NO: 2, Method B (MINGAGSETKSYAETYRLTADQVANINALNESAPAASSAGPSFRAP)”, the Yield entry is given as “—”.

On to “D2I, E7S, L18V, D21R: combination variant of pro-peptide SEQ ID NO: 2, Method B (MINGAGSETKSYAETYRVTARDVANINALNESAPAASSAGPSFRAP)”, for which the Yield entry is given as “—”.

On to “E7S, D21R: combination variant of pro-peptide SEQ ID NO: 2, Method B (MDNGAGSETKSYAETYRLTARDVANINALNESAPAASSAGPSFRAP)”, for which the Yield entry is reported as “—”.

Regarding “D2I, E7S, D21I: combination variant of pro-peptide SEQ ID NO: 2, Method B (MINGAGSETKSYAETYRLTAIDVANINALNESAPAASSAGPSFRAP)”, the Yield result is “—”.

Take “L18V, D21T: combination variant of pro-peptide SEQ ID NO: 2, Method B (MDNGAGEETKSYAETYRVTATDVANINALNESAPAASSAGPSFRAP)”: the Yield result is listed as “—”.

Regarding “D2I, D21T, D22Q: combination variant of pro-peptide SEQ ID NO: 2, Method B (MINGAGEETKSYAETYRLTATQVANINALNESAPAASSAGPSFRAP)”, the Yield result was “—”.

Consider “D2S, E7S, D21I: combination variant of pro-peptide SEQ ID NO: 2, Method B (MSNGAGSETKSYAETYRLTAIDVANINALNESAPAASSAGPSFRAP)”, for which the Yield entry is “—”.

“D2I, E2S, D21T: combination variant of pro-peptide SEQ ID NO: 2, Method B; E2S probably E7S (MINGAGSETKSYAETYRLTATDVANINALNESAPAASSAGPSFRAP)”: the Yield entry is recorded as “—”.

With “E7S, D21T, D22Q: combination variant of pro-peptide SEQ ID NO: 2, Method B (MDNGAGSETKSYAETYRLTATQVANINALNESAPAASSAGPSFRAP)”, the Yield entry was “—”.

Take “L18V, D21T, D22Q: combination variant of pro-peptide SEQ ID NO: 2, Method B (MDNGAGEETKSYAETYRVTATQVANINALNESAPAASSAGPSFRAP)”: the Yield entry is listed as “—”.

As to “D2S, L18V, D22Q: combination variant of pro-peptide SEQ ID NO: 2, Method B (MSNGAGEETKSYAETYRVTADQVANINALNESAPAASSAGPSFRAP)”, the Yield entry is recorded as “—”.

For “D2S, E7S: combination variant of pro-peptide SEQ ID NO: 2, Method B (MSNGAGSETKSYAETYRLTADDVANINALNESAPAASSAGPSFRAP)”, the Yield entry is recorded as “—”.

For “E7S, L18V, D21I: combination variant of pro-peptide SEQ ID NO: 2, Method B (MDNGAGSETKSYAETYRVTAIDVANINALNESAPAASSAGPSFRAP)”, the Yield result was “—”.
